# Legend:
# Amino acid sequences for entries named in this document (tags omitted). Residues count along the entry.
# UniProt Q05097, whole entry: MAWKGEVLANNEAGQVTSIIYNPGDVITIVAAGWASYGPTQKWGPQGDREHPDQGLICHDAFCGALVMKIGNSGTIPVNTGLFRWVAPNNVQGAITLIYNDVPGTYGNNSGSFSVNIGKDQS
# UniProt Q9HYN5, 2-115 limits assumed: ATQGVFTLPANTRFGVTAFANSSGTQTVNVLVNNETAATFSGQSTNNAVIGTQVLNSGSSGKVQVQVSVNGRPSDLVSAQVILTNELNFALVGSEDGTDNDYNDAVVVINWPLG
# LecA = LecA (Pseudomonas aeruginosa, UniProt Q05097); assay: Competitive binding assay based on fluorescence polarization, LecA; conditions: LecA 20 µM, reporter ligand S38, 2% DMSO; for IC50: read-out: IC50 (competitive binding, FP)
# Method: Next, binding of the optimized divalent ligand 17 and its synthetic precursor 16 to LecA was evaluated by fluorescence polarization-based (FP) assays,[47] SPR, and ITC. […] Therefore, fluorescent ligand 17 was analyzed in a direct binding experiment by FP. […] The dissociation constants for 16 were 47.2 ± 11.3 nM (ITC) and 47.8 ± 44.1 nM (steady-state SPR), while for 17, the values were 64.1 ± 31.1 nM and 79.3 ± 24.9 nM (steady-state SPR). For the SPR experiments, Kd was also determined by single-cycle kinetic analysis resulting in approximately five times higher affinity, but the data have limited reliability due to suboptimal fit for the kinetic curves (Figures S13B and S14).[58]−[60]
# Expression and purification of LecA17,18 and LecB (PAO1)19,20 was performed in analogy to the previously published protocols. LecA was purified on melibiose-coupled […]
# 137 mM NaCl, 2.6 mM KCl at pH 7.4 supplemented with 1 mM CaCl2). Protein concentration was determined by UV spectroscopy at 280 nm using a molar extinction coefficient of 27 960 M-1 cm-1 for LecA and 6 990 M-1 cm-1 for LecB.
# All synthesized alkyne precursors (S5m, S5p, S6m, S6p, S11, 25, S16, S22 and S24) were analysed in the previously established competitive binding assays based on fluorescence polarization (Figure S2).18,19 Galactose-based compounds (S5m, S5p, S6m, S6p, S11) were evaluated against LecA and C-glycoside-based compounds 23 and S16 against LecB. As […]
# concentration range and served as negative controls in both assays.
# LecA competitive binding assay was performed in presence of 2% DMSO, whereas LecB competitive binding assay had less than 0.5% DMSO present. In short, the compound dilution series were prepared in 96 well plates. 10 µL of each dilution in triplicates were mixed with 10 µL of master mix (40 µM LecA, 20 nM galactose-fluorescein reporter ligand S38 or 300 nM LecB and 20 nM S39 in TBS/Ca2+ buffer, Figure S3) in 384-well microtiter plates (Greiner Bio-One, Germany, cat no 781900). The plates were centrifuged (1 min, 500 g), sealed (EASYseal, Greiner Bio-One, cat no 676001) and incubated for 1 h in case of LecA and 6 h in case of LecB in a dark wet chamber under gentle shaking. Fluorescence was measured on a […]
# PheraStar FS plate reader (BMG Labtech GmbH, Germany) with excitation filters at 485 nm and emission filters at 535 nm. The measured intensities were reduced by the blank values (protein in TBS/Ca2+ buffer) and analysed with MARS Data Analysis Software (BMG Labtech GmbH, Germany). IC50 values were determined by the four-parameter variable slope model with the minimum and maximum limits of the fit fixed according to the controls in each assay […]
# Direct binding affinity determination of LecA and LecB imaging probes was performed with direct titration of protein and imaging probes in TBS/Ca2+ buffer. Protein dilution series was prepared in 96 well plates and 10 µL of each dilution in triplicates were mixed with 10 µL of fluorescent compound (20 nM) in 384-well microtiter plates (Greiner Bio-One, Germany, cat no 781900). The plates were centrifuged (1 min, 500 g), sealed and incubated for 2 h in dark wet chamber under gentle shaking. Fluorescence was measured on a PheraStar FS plate reader (BMG Labtech GmbH, Germany) with excitation filters at 485 nm and emission filters at 535 nm. The data were analysed with MARS Data Analysis Software (BMG Labtech GmbH, Germany) to calculate Kd values.
# Surface plasmon resonance experiments were performed on a BIACORE X100 instrument (GE Healthcare) at 25 °C as described by Zahorska et. al..2 Averages and standard deviations were calculated from three independent experiments.
# Isothermal titration calorimetry (ITC) was performed on an iTC200 (Malvern Panalytical) and the data were analyzed using Microcal Origin software (Malvern Panalytical).
# LecA (50 µM) in the cell was titrated with ligand (100 µM or 200 µM) in TBS/Ca2+ buffer supplemented with 5% DMSO at 25 °C. Steep titration slopes achieved with the divalent […]
# LecB = LecB (Pseudomonas aeruginosa, UniProt Q9HYN5); assay: Competitive binding assay based on fluorescence polarization, LecB
Compound,IC50 (LecA),also measured
C#CCNc1ccc(S[C@@H]2OC[C@@H](O)[C@H](O)[C@H]2O)cc1 [S22],,"IC50 (competitive binding, FP) (LecA): did not bind; IC50 (competitive binding, FP) (LecB; reporter ligand S39, less than 0.5% DMSO): did not bind"
C#CCNc1ccc(S[C@@H]2O[C@H](CO)[C@H](O)[C@H](O)[C@H]2O)cc1,31.5 µM,
C#CCCNc1cccc(S[C@@H]2O[C@H](CO)[C@H](O)[C@H](O)[C@H]2O)c1,17.8 µM,
C#CCNc1cccc(S[C@@H]2O[C@H](CO)[C@H](O)[C@H](O)[C@H]2O)c1,17.8 µM,
C#CCCNc1ccc(S[C@@H]2O[C@H](CO)[C@H](O)[C@H](O)[C@H]2O)cc1,22.3 µM,
C#CCOc1ccc(S[C@@H]2O[C@H](CO)[C@H](O)[C@H](O)[C@H]2O)cc1,24.3 µM,
C#CCOc1ccc(S(=O)(=O)NC[C@H]2O[C@@H](C)[C@@H](O)[C@@H](O)[C@@H]2O)cc1,,"IC50 (LecB; read-out: IC50 (competitive binding, FP), reporter ligand S39, less than 0.5% DMSO): 3.8 µM"

# — paper PMC11672137, “High-Affinity Lectin Ligands Enable the Detection of Pathogenic Pseudomonas aeruginosa Biofilms: Implications for Diagnostics and Therapy” (JACS Au, 2024)
